This note sets out measurements from PubChem BioAssay AID651654 (Broad Institute, 2012).

Only a part is listed here, and it is no random draw. Activity calls are given as the source filed them.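 Rule for the calls: active = mean lysis activity across replicates of at least 80%, whatever share of replicates individually reach that level; inactive = mean lysis activity below 80%.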

A short description of this experiment: fungicidal lysis via adenylate kinase leakage – AK release luminescence, single concentration, primary screen (AID 651654). The note with it: C. neoformans lysis, 4 h, at 15 µM, stronger effect = higher value, normalised: neutral wells 0, clomiphene wells 100. An outline of the steps: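 Assay system: C. neoformans cells. Amount: yeast cell density of 5 × 10^6 cells/mL. Technique: AK luminescence. Buffer or medium: YPD. Times: static 4 h at 37 °C with compound, 1 h detection. Dosing: single-point compound dose. Read-out: lysis from increased AK signal.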
With `COc1cc(C(=O)NCC2(N3CCOCC3)CCCCC2)cc(OC)c1C`, the lysis activity is inactive: 2.61%. On to `O=c1[nH]c2ccccc2n1C1CCN(C(c2ccnc3ccccc23)c2nnnn2C2CCCC2)CC1` (stereo not drawn), for which the lysis activity is inactive: 0.269%. With `O=c1[nH]c2ccccc2n1C1CCN(C(c2cccs2)c2nnnn2C2CCCCC2)CC1` (stereo not drawn), the lysis activity is inactive: -1.19%. With `c1ccc(CN2CCC(Nc3ccccc3)CC2)cc1`, the lysis activity is inactive: -0.136%. On to `CCCN1CCC(Nc2cc(OC)cc(OC)c2)CC1`, for which the lysis activity was inactive: 3.05%. Under `O=c1[nH]c2ccccc2n1C1CCN(C(c2ccccc2)c2nnnn2C2CCCC2)CC1` (stereo not drawn) stands inactive: -13.1%; under `CN(C)C1(CNC(=O)c2cccc(C#N)c2)CCCCC1`, inactive: 0.862%; under `CC(C)(C)n1nnnc1C(c1cccc2ccccc12)N1CCC(n2c(=O)[nH]c3ccccc32)CC1` (stereo not drawn), inactive: -17.5%. For the compound `CC(C)(C)OC(=O)N1CCC(N(C(=O)c2ccccc2)c2ccc(Cl)cc2)CC1`, the lysis activity is inactive: 3.01%. For the compound `N#Cc1ccc(C(=O)NCC2(N3CCCCC3)CCCCC2)cc1`, the lysis activity was inactive: -1.37%. For `Cc1ccccc1NC1(C#N)CCN(Cc2ccccc2)CC1`, the lysis activity was inactive: 1.83%. On to `CC(C)(C)n1nnnc1C(c1ccnc2ccccc12)N1CCC(n2c(=O)[nH]c3ccccc32)CC1` (stereo not drawn), for which the lysis activity was inactive: 3.88%. In the case of `COc1ccc(C(c2nnnn2C2CCCCC2)N2CCC(n3c(=O)[nH]c4ccccc43)CC2)cc1` (stereo not drawn), the lysis activity is inactive: 0.393%.

As to `O=C(NCC1(N2CCCCC2)CCCCC1)c1ccco1`, the lysis activity was inactive: 0.697%.

Regarding `Cn1c(=O)[nH]cc(N(CCCl)CCCl)c1=O`, the lysis activity was inactive: -1.05%. Turning to `O=c1[nH]c2ccccc2n1C1CCN(C(c2ccnc3ccccc23)c2nnnn2C2CCCCC2)CC1` (stereo not drawn), the lysis activity is inactive: -9.13%. With `COc1cc(OC)cc(C(=O)NCC2(N3CCCCC3)CCCCC2)c1`, the lysis activity is inactive: 14.2%.

With `CC(=O)N(c1ccccc1)C1CCNCC1`, the lysis activity is inactive: 1.52%.

With `COc1cccc(C(c2nnnn2C2CCCCC2)N2CCC(n3c(=O)[nH]c4ccccc43)CC2)c1OC` (stereo not drawn), the lysis activity was inactive: 1.04%. Under `CCC(c1nnnn1C1CCCCC1)N1CCC(n2c(=O)[nH]c3ccccc32)CC1` (stereo not drawn) stands inactive: -2.53%; under `Cc1ccc(NC2(C#N)CCN(Cc3ccccc3)CC2)cc1`, inactive: -0.521%. Turning to `Cc1ccc(C(=O)NCC2(N3CCCCC3)CCCCC2)o1`, the lysis activity is inactive: 1.25%. On to `Fc1ccccc1NC1CCN(Cc2ccccc2)CC1`, for which the lysis activity was inactive: 0.793%.

`CCC(CO)(C(=O)OC1CN2CCC1CC2)c1ccccc1` (stereo not drawn): the lysis activity was inactive: -1.62%. In the case of `COc1cccc(C(c2nnnn2C2CCCC2)N2CCC(n3c(=O)[nH]c4ccccc43)CC2)c1OC` (stereo not drawn) it was inactive: -13.7%; in that of `COc1cc(OC)cc(C(=O)NCC2(N3CCOCC3)CCCCC2)c1`, inactive: 0.941%. As to `COc1cccc(C(=O)N(c2cc(C)cc(C)c2)C2CCN(C(=O)OC(C)(C)C)CC2)c1`, the lysis activity is inactive: -4.35%. Take `CN1CCC(Nc2ccc(Cl)cc2)CC1`: the lysis activity is inactive: 0.408%. On to `CCOc1ncccc1C(=O)NCC1(N2CCOCC2)CCCCC1`, for which the lysis activity was inactive: -3.03%. Regarding `CN1CCC(Nc2ccc(F)c(Cl)c2)CC1`, the lysis activity is inactive: -0.633%. Under `CCCOc1ccc(C(=O)NCC2(N(C)C)CCCCC2)cc1` stands inactive: -1.74%; under `O=c1[nH]c2ccccc2n1C1CCN(C(c2cc3ccccc3o2)c2nnnn2C2CCCC2)CC1` (stereo not drawn), inactive: -22.7%. As to `O=C(O)C1(Nc2ccccc2)CCN(Cc2ccccc2)CC1`, the lysis activity is inactive: 1.11%.
